Compound potency records, mixed from different reports. Data source: NIAID ChemDB in PubChem.

All rows: tests in culture; organism: Mycobacterium avium; endpoint: MIC

Lines come from different laboratories, so protocols vary.

CC[C@H]1OC(=O)[C@H](C)[C@@H](O[C@H]2C[C@@](C)(OC)[C@@H](O)[C@H](C)O2)[C@H](C)[C@@H](O[C@@H]2O[C@H](C)C[C@H](N(C)C)[C@H]2O)[C@](C)(OC)C[C@@H](C)C(=O)[C@H](C)[C@@H](O)[C@]1(C)O ; cell line: Human monocyte-derived macrophages ; method: agar ; value: 8 µg/mL
O=c1oc2ccc(Br)cc2c(=S)n1-c1ccc(C(F)(F)F)cc1 ; strain: MY330/88 ; conditions: 14 d ; value: 32 µM
Cc1ccc(-n2c(=O)oc3cc(C)ccc3c2=O)cc1 ; strain: CNCTC MY330/88 ; value: 31 µM
CCCOc1ccc(NC(=O)OCCN2CCOCC2)cc1 ; strain: MY330/88 ; value: 500 µM
N#Cc1ccc(-n2c(=O)oc3ccc(F)cc3c2=O)cc1 ; strain: CNCTC MY330/88 ; value: 32 µM
CCCCCCCOc1ccc(NC(=O)OCCN(C)C)cc1 ; strain: MY330/88 ; value: 16 µM
Cc1ccc2oc(=O)n(-c3ccc(Br)cc3)c(=S)c2c1 ; strain: MY330/88 ; conditions: 21 d ; value: 4 µM
CCCCCOc1cccc(NC(=O)OCCN2CCCCC2)c1 ; strain: MY330/88 ; value: 62.5 µM
COc1ccc2oc(=O)n(-c3cccc(F)c3)c(=O)c2c1 ; strain: CNCTC MY330/88 ; value: 125 µM
CCCCCCCOc1ccc(NC(=O)OCCN2CCCCC2)cc1 ; strain: MY330/88 ; value: 16 µM
O=c1oc2ccccc2c(=O)n1-c1ccc([N+](=O)[O-])cc1 ; strain: CNCTC MY330/88 ; value: 31 µM
Fc1cccc(-n2c(=S)oc3ccc(Cl)cc3c2=S)c1 ; strain: MY330/88 ; conditions: 21 d ; value: 62.5 µM
COc1ccc(-n2c(=O)oc3cc(C)ccc3c2=O)cc1 ; strain: CNCTC MY330/88 ; value: 31 µM
Fc1ccc2oc(=S)n(-c3ccc(C(F)(F)F)cc3)c(=S)c2c1 ; strain: MY330/88 ; conditions: 14 d ; value: 32 µM
Cc1ccc2oc(=O)n(-c3ccc(Cl)cc3)c(=O)c2c1 ; strain: CNCTC MY330/88 ; value: 32 µM
O=c1oc2ccc(Br)cc2c(=S)n1-c1cccc(Cl)c1 ; strain: MY330/88 ; conditions: 21 d ; value: 32 µM
CCCCCCOc1ccc(NC(=O)OCCN2CCCCC2)cc1 ; strain: MY330/88 ; value: 32 µM
O=c1oc2ccc(Cl)cc2c(=S)n1-c1ccc(C(F)(F)F)cc1 ; strain: MY330/88 ; conditions: 21 d ; value: 32 µM
COc1ccc(NC(=O)OCC[NH+]2CCCC2)cc1 ; strain: MY330/88 ; value: 1000 µM
S=c1oc2ccc(Br)cc2c(=S)n1-c1ccc(Cl)c(Cl)c1 ; strain: MY330/88 ; conditions: 21 d ; value: 62.5 µM
CCCCCCCOc1ccccc1NC(=O)OCCN1CCCCCC1 ; strain: MY330/88 ; value: 16 µM